The source of these data is paper PMC8324912.

The subject of series [1] is ArcA (Vibrio cholerae E12382). Nature of the series: EMSA. The settings on record: 30 mM acetyl phosphate when necessary; recombinant protein; residues 1-239; protein details: 6xHis (pET28a); probe letters rebuilt from the primers and the genome. A general note: In EMSA bound probe runs differently from free probe, usually more slowly.
Series [2] concerns FruI (LacI-type regulator) (Vibrio cholerae E12382). As to the kind of experiment: EMSA. Conditions: recombinant protein, residues 1-343, protein details: 6xHis (pET28a), probe letters rebuilt from the primers and the genome.

For at least one entry, the source does not settle the construct or the ends of the probe.

For the sequence “GAGCTGTTTATTTTGGGTATAACCCAAAATAATAAGCGAATAACCGTTTACCGCTCTAAATTATGTGACGTTGTGTTAATTGAATTGATGACTACGTAACTATTTATGCTAGGCTGTAGTCGGTTCTAATGACTGATAAATCACGAGTTATGCATTCTGAAAAAGCCACCGTCACCTCCAAAGATGTTGCCAAGTTAGCTGGGGTTTCTCAATCTACCGTATCACGCGTTTTTGTACCGGGTAGCTCGGTATCTG (double strand) [fruI promoter (EMSA fragment)]”, the binding result in series [1] is on record as “binds”.

“GTAACCAACCAAGATCGCCAGATAGGCGGCTACTCTTTGAATCATAGGAACTTCGCTCATGTGTTTTTTGGTGGTCATGACCGATAAACCTCTGTTTTAAATTGATTTAAATATAATTCAACAGTGTGATTGAGACAGTTTCTCCATCTTTTTCAACCTTTACTTCGCGAAGAAGAATAGATTTATTTCGCGATAATGATCCGTGATCA (double strand) [fruT promoter (EMSA fragment)]”: the binding result in series [2] (0-10 mM fructose, binding not inhibited) is on record as “binds”; in series [2] (0-10 mM fructose-1-phosphate, binding not inhibited), “binds”; in series [2] (0-10 mM fructose-6-phosphate, binding not inhibited), “binds”; in series [2] (no effector), “binds”.
